Assay: general procedure: Fmoc solid-phase peptide synthesis; PAL-Ala-aminomethyl-polystyrene(1%)divinylbenzene (0.5 mmol/g) or TentaGel Rink-amide (0.18 mmol/g); DIC/HOBt or TBTU/HOBt with DIEA
Conditions: whole synthesis, scale of the general procedure 0.02 mmol or 0.0076 mmol

HGEGTFTSDLSKQMEEEAVRLFIEWLKAGR-NH2
final purity (method not given): ≧97%

HGEGTFTSDLSKQMEEEAVRLFIEWLKNGR-NH2
final purity (method not given): ≧96%

Source: patent publication US6767887B1 (Roche Diagnostics GmbH, priority 1999, dated 2004)
